Pooled drug test results. Numbers come from NIAID ChemDB, via PubChem.

Common to all: growth or infection tests; species: Mycobacterium tuberculosis

A number after MIC or MFC names an inhibition level or a share of isolates.

SMILES,strain or isolate,mutations,method,setting,measure,tested at,value
O=C1c2cc(F)ccc2-n2c1nc1cc(F)c(F)cc1c2=O,H37Rv,,,,MIC,,0.13 µg/mL
CC(=O)OCC1OC2OC(C)(C)OC2C1NC(=O)C(F)(F)F,H37Rv,,BACTEC,,inhibition,12.5 µg/mL,4%
N[C@@H]1CN(c2c(F)cc3c(=O)c(C(=O)O)cn([C@@H]4C[C@@H]4F)c3c2Cl)CC12CC2,,,,,MIC,,0.125–0.5 µg/mL
NNC(=O)c1ccncc1,ATCC 27294,,,,MIC,,0.22 µM
Cc1ccc(C(F)(F)F)cc1CNCc1cc(C(=N)C2CC2)c(Nc2ccccc2)[nH]c1=O,H37Rv,,broth dilution,,MIC,,0.1 µM
NNC(=O)C(N)Cc1ccccc1,H37Rv,,BACTEC,,MIC bound,,>12.5 µg/mL
O=C(NCCCN1c2ccccc2Sc2ccccc21)N1C(=O)/C(=C\c2ccc(Cl)cc2)SC1c1ccc(Cl)cc1,H37Rv,,agar,,inhibition,50 µg/mL,74%
COc1cccc(Nc2nc(C#N)cnc2C(N)=O)c1,H37Rv,,,,MIC,,>100 µg/mL
N/C(=N\N=C\c1ccccc1Br)c1ccncc1,1342,,,,MIC,,16 µg/mL
Cn1cc(C(=O)C2CCCCC2)ccc1=O,H37Rv,,resazurin,,MIC bound,,>6.25 µg/mL
ClCCCN1c2ccccc2Sc2ccccc21,H37Rv,,agar,,inhibition,50 µg/mL,20%
COc1cc(/C=N/N=C(\N)c2ccncc2)cc(OC)c1OC,1054,,,,MIC,,>256 µg/mL
COc1cccc(/C=N/C(=O)NCCCN2c3ccccc3Sc3ccccc32)c1,H37Rv,,agar,,inhibition,25 µg/mL,28%
CO[C@@H]1C=C2C3CC[C@H]([C@H](C)/C=C/C(C)C(C)C)[C@@]3(C)CCC2[C@@]2(C)CC[C@H](O)C[C@]12O,H37Rv,,,,MIC,,36 µg/mL
N/C(=N\N=C\c1ccc(Cl)c(Cl)c1)c1ccncc1,1054,,,,MIC,,256 µg/mL
CCn1cc(C(=O)O)c(=O)c2cc(F)c(-n3cccc3)cc21,,,,pH 6.8,EC50,,<3 µg/mL
CCC(CO)NC[C@H]1O[C@H](CO)[C@@H](O)[C@@H]1O,H37Ra,,,,MIC,,>128 µg/mL
COc1cc(O)c2c(c1)OC(c1ccc(O)cc1)CC2=O,,,,,MIC,,128 µg/mL
CCc1nc2ccccc2c2nc3cc4ccccc4cc3n12,H37Rv,,resazurin,,MIC99,,25 µg/mL
CN1CCN(C(=O)N2c3ccccc3Sc3ccccc32)CC1,H37Rv,,BACTEC,,MIC bound,,>12.5 µg/mL
C/C(=C\CC[C@H](C)[C@@H]1CC[C@]2(C)C3=CCC4C(C)(C)C(=O)CC[C@]4(C)C3CC[C@@]12C)C(=O)O,,,,,MIC,,64 µg/mL
O=C(NCCCN1c2ccccc2Sc2ccccc21)N1C(=O)/C(=C\c2cccc([N+](=O)[O-])c2)SC1c1cccc([N+](=O)[O-])c1,H37Rv,,agar,,inhibition,25 µg/mL,27%
CC1(C)CC(N=c2cc3n(-c4ccc(Cl)cc4Cl)c4ccccc4nc-3cc2Nc2ccc(Cl)cc2Cl)CC(C)(C)N1,H37Ra,,BACTEC,,inhibition,0.6 µg/mL,56%
OC[C@H]1O[C@@H](Oc2ccc(/C=C/c3cc(O)cc(O)c3)cc2)[C@H](O)[C@@H](O)[C@@H]1O,,,,,MIC,,>128 µg/mL
CC(C)C(C)/C=C/[C@@H](C)[C@H]1CCC2C3=C[C@@H](O)[C@@]4(O)C[C@@H](O)CC[C@]4(C)C3CC[C@@]21C,H37Rv,,,,MIC,,6 µg/mL
O=C1CSC(c2ccccc2[N+](=O)[O-])N1C(=O)NCCCN1c2ccccc2Sc2ccccc21,H37Rv,,agar,,inhibition,50 µg/mL,70%
CCCCC[C@H]1CCCCCCCCCC(=O)OC[C@H]2OC(O[C@H]3[C@H](O1)O[C@H](C)[C@H](O)[C@@H]3O)[C@H](OC1O[C@@H](C)[C@H](OC(=O)[C@H](C)[C@@H](C)O)[C@@H](OC3O[C@@H](C)[C@H](O)[C@@H](O)[C@H]3O)[C@H]1OC(=O)C(C)CC)[C@@H](O)[C@@H]2O,,,,,MIC,,16 µg/mL
N#Cc1cnc(C(N)=O)c(Nc2ccc(Cl)cc2)n1,H37Rv,,,,MIC,,>100 µg/mL
S=C(S)Nc1cccc2ccccc12,H37Rv,,BACTEC,,inhibition,12.5 µg/mL,17%
C=C1C(=O)O[C@@H]2/C=C(\COC(=O)CC(C)C)CC/C=C(\C)CCC12,,,,,MIC,,16 µg/mL
NC(=O)c1ccc[n+](Cc2ccccc2C[n+]2cccc(C(N)=O)c2)c1.[Br-].[Br-],H37Rv,,BACTEC,,MIC,,≥12.5 µg/mL
N/C(=N\N=C\c1ccccc1Cl)c1ccncc1,H37Rv,,,,MIC,,8 µg/mL
COc1ccc(S(=O)(=O)/N=C(/C2CC3=CCC4C5CCC(=O)C5(C)CC(=O)C4C3(C)C2)N2CCCC2)cc1,H37Rv,,resazurin,,inhibition,6.25 µg/mL,-3%
CCCc1nc2ccc(Br)cc2c2nc3ccccc3n12,H37Rv,,resazurin,,MIC99,,1.56 µg/mL
C=C1C(OC(=O)C(C)C)C[C@H]2C(=C)CC[C@H]3C(=C)C(=O)O[C@@H]3[C@@H]12,,,,,MIC,,32 µg/mL
CCCCCCCCN1[C@H](CO)[C@@H](O)[C@H](O)[C@@H]1CO,H37Ra,,,,MIC,,>128 µg/mL
Nc1ccc(CNC(=O)c2nc3cc(C(F)(F)F)ccc3s2)cc1,H37Rv (ATCC 27294),,,,MIC99,,50 µg/mL
CN=c1ncc2nc(C)c(C)n(C)c-2n1,H37Rv,,BACTEC,,inhibition,12.5 µg/mL,19%
N/C(=N\N=C\c1ccc(Cl)c([N+](=O)[O-])c1)c1ccncc1,1342,,,,MIC,,>256 µg/mL
CC[C@H]1OC(=O)[C@H](C)C(=O)[C@H](C)[C@@H](O[C@@H]2O[C@H](C)C[C@H](N(C)C)[C@H]2O)[C@](C)(OC)C[C@@H](C)C(=O)[C@H](C)[C@H]2N(NCCCc3ccnc4ccccc34)C(=O)O[C@]12C,Isolate 900216,,,,MIC,,10 µg/mL
COc1cc(/C=N/NC(=O)C[N+](C)(C)C)cc(I)c1O,H37Rv,,BACTEC,,MIC bound,,>12.5 µg/mL
CCCCCCCCCCCCSC[C@@H]1N[C@H](CO)[C@@H](O)[C@@H]1O,H37Ra,,,,MIC,,16 µg/mL
[O-]N(O)O.c1c(N2CCOCC2)ssc1=[N+]1CCOCC1,H37Rv,,BACTEC,,MIC,,≥12.5 µg/mL
OC[C@H]1O[C@@H](Oc2ccc(/C=C/c3cc(O)cc(O)c3)cc2O)[C@H](O)[C@@H](O)[C@@H]1O,,,,,MIC,,>128 µg/mL
Cn1c(=O)c2c(nc(Cl)n2Cc2ccc([N+](=O)[O-])cc2)n(C)c1=O,H37Rv,,resazurin,,MIC bound,,>6.25 µg/mL
Cc1cccc(C)c1Nc1nc(C#N)cnc1C(N)=O,H37Rv,,,,MIC,,>100 µg/mL
Nc1ncnc2nc([C@@H]3O[C@H](CO)[C@@H](O)[C@@H]3O)[nH]c12,H37Rv,,BACTEC,,inhibition,12.5 µg/mL,5%
O=C(NCCCN1c2ccccc2Sc2ccccc21)N1C(=O)/C(=C\c2cccc(O)c2)SC1c1cccc(O)c1,H37Rv,,agar,,inhibition,50 µg/mL,70%
I.O=C(NNc1ncccn1)c1ccc(C(=O)NNc2ncccn2)cc1,H37Rv,,BACTEC,,MIC bound,,>12.5 µg/mL
CCCCCCCCc1ccc2c(c1)C(=O)c1nc3ccncc3c(=O)n1-2,TN1195RFLF:N2 (MDR),,,,MIC,,0.03 µg/mL
CCCCc1nc2ccc(F)cc2c2nc3ccccc3n12,H37Rv,,resazurin,,MIC99,,12.5 µg/mL
C=CC(C)(O)CC/C=C(\C)CCC(O)C(C)(O)CCCC(C)(O)CCCC(C)(O)CCCC(C)(O)CCCC(C)(O)CCCC(C)(O)CCCC(C)(O)CCCC(C)(O)CCCC(C)(O)CCC=C(C)C,H37Rv,,,,MIC,,>128 µg/mL
O=[n+]1c2ccccc2n([O-])c2ccccc21,H37Rv,,BACTEC,,MIC,,1.6 µg/mL
O=C(NCCCN1c2ccccc2Sc2ccccc21)N1C(=O)/C(=C\c2cccc(Cl)c2)SC1c1cccc(Cl)c1,H37Rv,,agar,,inhibition,50 µg/mL,80%
CCCCCCCCCCCCSC[C@H]1[C@@H](O)[C@H](O)[C@@H](CO)N1Cc1ccccc1,H37Ra,,,,MIC,,64–128 µg/mL
Cc1nc(Nc2ccccc2[N+](=O)[O-])sc1C(=O)CC(=O)C(=O)Nc1c(C(C)C)cccc1C(C)C,H37Rv,,resazurin,,inhibition,6.25 µg/mL,10%
COc1ccc2nc(C)n3c4ccccc4nc3c2c1,H37Rv,,resazurin,,MIC99,,12.5 µg/mL
N#Cc1cnc(C(N)=O)c(Nc2ccccc2)n1,H37Rv,,,,MIC,,12.5 µg/mL
CC(C)[C@@H](C)/C=C/[C@@H](C)[C@H]1CCC2C3=C[C@H](O)[C@@]4(O)C[C@@H](O)CC[C@]4(C)C3CC[C@@]21C,H37Rv,,,,MIC,,11 µg/mL
Cc1cc(C)c2c(SCc3ccc(Cl)cc3Cl)nc(N)nc2n1,H37Rv,,BACTEC,,MIC bound,,>12.5 µg/mL
O=C(O[C@@H]1Cc2c(O)cc(O)cc2O[C@@H]1c1ccc(O)c(O)c1)c1cc(O)c(O)c(O)c1,,,,,MIC,,>128 µg/mL
CN(CCO)c1ccc2c(=O)n3c(nc2c1)C(=O)c1cc(OC(F)(F)F)ccc1-3,H37Rv,,,,MIC,,0.13 µg/mL
CCCCCCCCCCCCCCCCNC(=O)C1=CCN(C)[C@@H]([C@H](O[C@@H]2O[C@H](CN)[C@@H](O)[C@H]2O)[C@H]2O[C@@H](n3ccc(=O)[nH]c3=O)[C@H](O)[C@@H]2O)C(=O)N1C,Kurono,,,,MIC,,1.56 µg/mL
O=C1NN2CCN=C2c2ncccc21,H37Rv,,BACTEC,,inhibition,12.5 µg/mL,10%
O=C1c2c(cccc2C(F)(F)F)-n2c1nc1ccncc1c2=O,H37Rv,,,,MIC,,0.13 µg/mL
Brc1ccc2ncn3c4ccccc4nc3c2c1,H37Rv,INH resistant,resazurin,,MIC99,,12.5 µg/mL
COc1ccccc1/C=N/N=C(\N)c1ccncc1,1342,,,,MIC,,64 µg/mL
CN(C)C/C=C(/c1ccc(-c2ccc(Br)cc2)cc1)c1cccs1,ATCC 27294,,,,MIC,,20.2 µM
C=C1CC[C@H]2C(=C)CC[C@H]3C(=C)C(=O)O[C@@H]3[C@@H]12,,,,,MIC,,8 µg/mL
O=C1c2ccccc2-n2c1nc1ccc(F)cc1c2=O,H37Rv,,,,MIC,,0.5 µg/mL
CCCc1nc2ccccc2c2nc3ccccc3n12,H37Rv,INH resistant,resazurin,,MIC99,,0.78 µg/mL
NC1=NC(=O)NC1(c1ccccc1)c1ccccc1,H37Rv,,BACTEC,,MIC bound,,>12.5 µg/mL
N/C(=N\N=C\c1ccc(Br)cc1)c1ccncc1,1054,,,,MIC,,64 µg/mL
CO[C@H]1/C=C/O[C@@]2(C)Oc3c(C)c(O)c4c(O)c(c(/C=N/N5CCN(C6CCCC6)CC5)c(O)c4c3C2=O)NC(=O)/C(C)=C\C=C\[C@H](C)[C@H](O)[C@@H](C)[C@@H](O)[C@@H](C)[C@H](OC(C)=O)[C@@H]1C,Atencio,,,,MIC,,0.06 µg/mL
N#Cc1cnc(C(N)=O)c(Nc2cccc(Br)c2)n1,H37Rv,,,,MIC,,>100 µg/mL
CCOC(=O)c1ccc2c(c1)C(=O)c1nc3ncccc3c(=O)n1-2,H37Rv,,,,MBC,,4 µg/mL
CC1=NCCc2c1cc1c([nH]c3ccccc31)c2C,H37Rv,,resazurin,,MIC bound,,>6.25 µg/mL
O=C(NCCCN1c2ccccc2Sc2ccccc21)N1C(=O)/C(=C\c2ccc(Br)cc2)SC1c1ccc(Br)cc1,H37Rv,,agar,,inhibition,50 µg/mL,78%
COc1cccc2c1C(=O)c1c(O)c3c(c(O)c1C2=O)C[C@@](O)(/C(C)=N/NC(=O)CO)CC3OC1CC(N)C(O)C(C)O1.Cl,H37Rv,,BACTEC,,MIC bound,,≤12.5 µg/mL
CC(C)[C@@H](C)/C=C/[C@@H](C)[C@H]1CCC2[C@@]34C=C[C@]5(C[C@@H](O)CC[C@]5(C)C3CC[C@@]21C)OO4,H37Rv,,,,MIC,,1 µg/mL
Cc1ccc(C(F)(F)F)cc1CNCc1cc(C(=N)C(C)C)c(Nc2ccccc2)[nH]c1=O,H37Rv,,broth dilution,,MBC,,<0.5 µM

7 of the rows above, restated:

SMILES	strain or isolate	mutations	method	setting	measure	tested at	value
O=C(NCCCN1c2ccccc2Sc2ccccc21)N1C(=O)/C(=C\c2ccc(Cl)cc2)SC1c1ccc(Cl)cc1	H37Rv		agar		inhibition	50 µg/mL	74%
CC1=NCCc2c1cc1c([nH]c3ccccc31)c2C	H37Rv		resazurin		MIC bound		>6.25 µg/mL
COc1cc(O)c2c(c1)OC(c1ccc(O)cc1)CC2=O					MIC		128 µg/mL
CCCCCCCCc1ccc2c(c1)C(=O)c1nc3ccncc3c(=O)n1-2	TN1195RFLF:N2 (MDR)				MIC		0.03 µg/mL
Nc1ncnc2nc([C@@H]3O[C@H](CO)[C@@H](O)[C@@H]3O)[nH]c12	H37Rv		BACTEC		inhibition	12.5 µg/mL	5%
O=C1CSC(c2ccccc2[N+](=O)[O-])N1C(=O)NCCCN1c2ccccc2Sc2ccccc21	H37Rv		agar		inhibition	50 µg/mL	70%
CCCCc1nc2ccc(F)cc2c2nc3ccccc3n12	H37Rv		resazurin		MIC99		12.5 µg/mL

ECn is the concentration giving n% inhibition of infection, replication or growth. An empty or dashed field is not shown. MIC bound comes from a single tested concentration. Two numbers with a dash give a range or band. Lines come from different laboratories, so protocols vary. Percent inhibition refers to the dose given; in toxicity tests it is the harm to the cells.